Results from patent US8476222B2, “Isolated peptides from Actinomadura namibiensis” (priority 2006, dated 2013).

System: Mycovirus (RNA/Influenza A/Aichi)
Type: cell-based
Conditions: host organism Vero cells

In the case of `CC(C)C[C@@H]1NC(=O)[C@]23CSC[C@H](NC(=O)[C@H](C)NC(=O)[C@H](Cc4ccccc4)NC1=O)C(=O)N[C@H](C(=O)O)CSSC[C@H](NC(=O)[C@@H]1CSC[C@]4(C[C@H](N)C(=O)N[C@@H](CC(=O)O)C(=O)N[C@@H](Cc5c[nH]c6ccccc56)C(=O)N4)C(=O)N[C@@H](CC(C)C)C(=O)N[C@@H](Cc4c[nH]c5ccccc45)C(=O)N[C@@H](CCC(=O)O)C(=O)N1)C(=O)N[C@@H](C2)C(=O)N[C@@H]([C@@H](C)O)C(=O)NCC(=O)N3` [Labyrinthopeptin (III)], the Inhibition is reported as 44.44 mg/L.
